Test results reported in ChEMBL document CHEMBL3232718, “Design, synthesis, and characterization of novel, nonquaternary reactivators of GF-inhibited human acetylcholinesterase” (2014).

Chains of the proteins cited; added tags and fusions are not shown. Residues count along the entry.
UniProt P22303, 32-614 limits assumed: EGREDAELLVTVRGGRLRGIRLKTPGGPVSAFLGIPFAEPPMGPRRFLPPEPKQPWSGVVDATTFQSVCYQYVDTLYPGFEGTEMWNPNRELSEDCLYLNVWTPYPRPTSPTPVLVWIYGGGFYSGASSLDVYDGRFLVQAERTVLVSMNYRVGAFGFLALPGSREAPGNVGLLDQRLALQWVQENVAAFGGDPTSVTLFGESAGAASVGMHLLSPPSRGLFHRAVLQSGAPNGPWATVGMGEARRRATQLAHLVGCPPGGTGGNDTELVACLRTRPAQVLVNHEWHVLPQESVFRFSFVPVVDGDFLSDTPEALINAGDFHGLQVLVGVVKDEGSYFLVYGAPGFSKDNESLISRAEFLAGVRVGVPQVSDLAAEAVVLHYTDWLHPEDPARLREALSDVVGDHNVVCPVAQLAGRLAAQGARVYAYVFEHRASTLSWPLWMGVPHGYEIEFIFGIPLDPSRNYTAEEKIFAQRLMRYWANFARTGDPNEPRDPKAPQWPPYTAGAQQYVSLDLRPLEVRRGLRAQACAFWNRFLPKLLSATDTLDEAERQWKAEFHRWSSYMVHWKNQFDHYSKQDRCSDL

Target: Acetylcholinesterase (Homo sapiens, UniProt P22303)
Assay: Inhibition of human AChE using acetylthiocholine as substrate after 4 hrs by robotic spectrophotometric assay; call rule not given here

| Compound | Ki |
| --- | --- |
| O=C(/C=N/O)NCCCNc1c2c(nc3ccccc13)CCCC2 | 6.22 µM |
| O=C(/C=N/O)c1ccc(OCC2CCN(Cc3ccccc3)CC2)nc1 | 31.2 µM |
| CC(=O)/C=N/O | Not Active |
| N#C/C(=N\O)C(=O)NCCCNc1c2c(nc3ccccc13)CCCC2 | 3.08 µM |
| O=C(/C=N/O)c1cnc(OCC2CCN(Cc3ccccc3)CC2)nc1 | 55.2 µM |
| O=C(/C=N/O)NCCCCNc1c2c(nc3ccccc13)CCCC2 | 1.49 µM |
